Results on three molecules are retold here after article PMC9779606, “Synthesis, Structural Characterization and Biological Activity Evaluation of Novel Cu(II) Complexes with 3-(trifluoromethyl)phenylthiourea Derivatives” (International Journal of Molecular Sciences, 2022).

The subject of the series is M. tuberculosis Spec. 210. Put plainly: Tuberculostatic activity, Microplate Alamar Blue Assay (MABA). The series is classed as cell-based, Mycobacterium tuberculosis. The note with it: resistant Spec. 210 isolate. As to the method:
The synthesized compounds were examined in vitro for their tuberculostatic activity using MABA method (Microplate Alamar Blue Assay method). […] The inoculum was prepared from fresh LJ culture in Middlebrook 7H9 Broth medium with OADC, adjusted to a no. 1 McFarland tube, and diluted 1:20. […] Each test compound stock solution was diluted in Middlebrook 7H9 Broth medium with OADC by fourfold, the final highest concentration to be tested. Compounds were diluted serially in sterile 96-well microtiter plates using 100 μL Middlebrook 7H9 Broth medium with OADC. […] A growth control containing no antibiotic and a sterile control without inoculation were also prepared on each plate. The plates were incubated at 37 °C for a week. After the incubation period, 30 μL of Alamar blue solution was added to each well, and the plate was re-incubated for 24 h. Growth is indicated by a color change from blue to pink and the lowest concentration of compound that prevented the color change was noted as its MIC. Isoniazid (INH), Rifampicin (RMP), Streptomycin (SM), and Ethambutol (EMB) as reference drugs were used for comparison.

For `CC(NC(=S)[N-]c1cccc(C(F)(F)F)c1)c1ccccc1.CC(NC(=S)[N-]c1cccc(C(F)(F)F)c1)c1ccccc1.[Cu+2]` (racemic) [Cu2, Copper(II) Complex with 1-(1-phenylethyl)-3-[3-(trifluoromethyl)phenyl]thiourea], the “inhibitory properties stronger than the reference tuberculostatics” value is 2–4 fold.

Take `FC(F)(F)c1cccc([N-]C(=S)Nc2cccc(Br)c2)c1.FC(F)(F)c1cccc([N-]C(=S)Nc2cccc(Br)c2)c1.[Cu+2]` [Cu4, Copper(II) Complex with 1-(3-bromophenyl)-3-[3-(trifluoromethyl)phenyl] thiourea]: the “inhibitory properties stronger than the reference tuberculostatics” value is given as 4–8 fold.

Turning to `O.O=[N+]([O-])c1cc(NC(=S)[N-]c2cccc(C(F)(F)F)c2)ccc1Cl.O=[N+]([O-])c1cc(NC(=S)[N-]c2cccc(C(F)(F)F)c2)ccc1Cl.[Cu+2]` [Cu5, Copper(II) Complex with 1-(4-chloro-3-nitrophenyl)-3-[3-(trifluoromethyl)phenyl]thiourea], the “inhibitory properties stronger than the reference tuberculostatics” value is reported as 4–8 fold.
